The data set has as its system Nc1ncnc2c1ncn2[C@@H]1O[C@H](COP(=O)(O)OP(=O)(O)OP(=O)(O)O)[C@@H](O)[C@H]1O. The data set can be described thus: purified protein. Conditions: 20 mM Tris pH 8.0, 100 mM NaCl, 10 mM MgCl2, 1 mM DTT, 0.025% BSA, 5% glycerol, 10 µM protein, Hill fit, unit not given, taken from the YsaN value.

Consider “YsaN∆83 (Yersinia enterocolitica subsp. enterocolitica 8081)”, for which the K0.5 was determined as 467.3 ± 30.15 µM.

The values above are taken from paper PMC9493007.
